Anti-infective test results gathered from many reports (values: NIAID ChemDB through PubChem).

Shared fields: cytotoxicity tests; cell line: A549; read-out: CC50

Lines come from different laboratories, so protocols vary.

compound,method,result
CCCCN=C(N)c1ccc(N2CCCN(c3ccc(C(N)=NCCCC)cc3)CC2)cc1,-,>18.6 µg/mL
CCSc1nnc(-c2ccc(F)cc2)o1,MTT,>100 µg/mL
CCC(O)CN1CCC2(C=C(c3nc(-c4ccc(OC)cc4)no3)c3ccccc32)CC1,resazurin,19 µM
Nc1ncnc2c1ncn2[C@@H]1C[C@@H](O)[C@H](CO)O1,-,>100 µM
CCn1[se]c2ccccc2c1=O,visual reading,3 µg/mL
Cn1ccc(-c2noc(C3=CC4(CCN(CC5CCCO5)CC4)c4ccccc43)n2)n1,resazurin,68 µM
O=C1O[C@@H]2[C@@H](OC(=O)c3cc(O)c(O)c(O)c3-c3c1cc(O)c(O)c3O)[C@@H](O)O[C@@H]1COC(=O)c3cc(O)c(O)c(O)c3-c3c(O)c(O)c4oc(=O)c5c(c(O)c(O)c6oc(=O)c3c4c65)-c3c(cc(O)c(O)c3O)C(=O)O[C@@H]21,XTT,319 µM
c1cc(C2=NCCN2)ccc1CC1CCCN(c2ccc(C3=NCCN3)cc2)C1,-,27.7 µg/mL
O=c1c2ccccc2[se]n1C(CO)CO,visual reading,15 µg/mL
CCCCCCCCCCCCCCCCOP(=O)([O-])OCCC[n+]1ccccc1,MTT,61.6 µM
O=c1c2cc(O)ccc2oc2cc(O)cc(O)c12,sulforhodamine / absorbance,49.01 µM
CCOC(Cn1[se]c2ccccc2c1=O)OCC,visual reading,7.3 µg/mL
COc1cc2c(O[C@@H]3OC[C@](O)(COC(C)=O)[C@H]3O)c3c(c(-c4ccc5c(c4)OCO5)c2cc1OC)C(=O)OC3,absorbance,4.632 µM
CC1CC(C)CN(c2sc([N+](=O)[O-])cc2[N+](=O)[O-])C1,resazurin,75 µg/mL
CC(C)(C)CC(C)(C)c1ccc(OCCOP(=O)([O-])OCC[N+](C)(C)Cc2ccccc2)cc1,MTT,>100 µM
O=c1c2cccnc2[se]n1N(c1ccccc1)c1ccccc1,-,7.5 µg/mL
CC(C)=CCC[C@@H](C)[C@@H]1CC[C@]2(C)C3=C(CC[C@@]12C)[C@@]1(C)CC[C@H](O)C(C)(C)[C@@H]1CC3,sulforhodamine / absorbance,>50 µM
COc1ccc(CN2C(=O)C3(CCN(CC4CCCO4)CC3)c3ccccc32)cc1,resazurin,>50 µM
Cc1ccc(-n2[se]c3ccccc3c2=O)nc1,-,200 µg/mL
COc1cc2c(cc1OC)-c1c3c(cc4ccnc(c14)C2=O)OCO3,sulforhodamine / absorbance,36.7 µM
O=c1c2ccccc2[se]n1C1CCCCC1,visual reading,3 µg/mL
CCCN=C(N)c1ccc(N2CCN(c3ccc(C(N)=NCCC)cc3)CC2)cc1,-,1070 µg/mL
COc1ccc(-c2noc(C3=CC4(CCN(CC(C)O)CC4)c4ccccc43)n2)cc1,resazurin,3 µM
O=C1C[C@@H](c2ccc(O)cc2)Oc2cc(O)c(-c3c(O)cc4c(c3O)C(=O)C[C@@H](c3ccc(O)cc3)O4)c(O)c21,visual reading,22 µg/mL
Cn1[se]c2ccccc2c1=O,visual reading,2.5 µg/mL
O=c1c2ccccc2[se]n1-c1cccnc1,-,3 µg/mL
Clc1ccc(-c2nc(SCC3CC3)n[nH]2)cc1,MTT,>100 µg/mL
Cc1cc(NS(=O)(=O)c2ccc(N3C(=O)CSC3c3c(F)cccc3F)cc2)no1,MTT,>100 µg/mL
O=c1cc(-c2ccc(O)c(-c3c(O)cc(O)c4c(=O)cc(-c5ccc(O)cc5)oc34)c2)oc2cc(O)cc(O)c12,visual reading,18 µg/mL
CNC(=O)CN1CCC2(C=C(c3nc(-c4ccc(OC)cc4)no3)c3ccccc32)CC1,resazurin,>100 µM
CCCNC(=S)Nc1ccccc1[Se][Se]c1ccccc1NC(=S)NCCC,MTT,117 µg/mL
CN(C)CCn1[se]c2ccccc2c1=O,visual reading,1.22 µg/mL
O=c1cc(-c2ccc(Oc3c(O)cc4oc(-c5ccc(O)cc5)cc(=O)c4c3O)cc2)oc2cc(O)cc(O)c12,visual reading,22 µg/mL
COc1ccc(CN2C(=O)C3(CCN(CC4CC4)CC3)c3ccccc32)cc1,resazurin,>50 µM
CO[C@H]1/C=C/O[C@@]2(C)Oc3c(C)c(O)c4c(O)c(c(/C=N/N5CCN(C)CC5)c(O)c4c3C2=O)NC(=O)/C(C)=C\C=C\[C@H](C)[C@H](O)[C@@H](C)[C@@H](O)[C@@H](C)[C@H](OC(C)=O)[C@@H]1C,resazurin,>100 µg/mL
CCCNC(=O)n1[se]c2ccccc2c1=O,visual reading,9.8 µg/mL
Cc1cc(NS(=O)(=O)c2ccc(N3C(=O)CSC3c3ccc(C(F)(F)F)cc3)cc2)no1,MTT,>100 µg/mL
O=c1c2cccnc2[se]n1-c1ccccc1,-,20 µg/mL
C/C(=C\C=C\C(C)[C@H]1CC[C@@]2(C)[C@@H]3CC[C@H]4C(C)(C)C(=O)CC[C@]4(C)C3=CC[C@]12C)C(=O)O,sulforhodamine / absorbance,>50 µM
O=S(=O)(Nc1ccccc1[Se][Se]c1ccccc1NS(=O)(=O)c1ccccc1)c1ccccc1,MTT,30 µg/mL
CC(C)(C)CC(C)(C)c1ccc(OCCOP(=O)([O-])OCCC[N+](C)(C)Cc2ccccc2)cc1,MTT,>100 µM
CC1CCN(c2ccc([N+](=O)[O-])s2)CC1,resazurin,21 µg/mL
CCCCSc1n[nH]c(-c2ccc(O)cc2)n1,MTT,>100 µg/mL
N/C(=N\C1=NCCN1)c1ccc(NC(=O)C2CC2C(=O)Nc2ccc(/C(N)=N/C3=NCCN3)cc2)cc1,-,284.1 µg/mL
O=c1c2ccccc2[se]n1-c1cc([N+](=O)[O-])ccn1,-,400 µg/mL
Nc1ccn(C[C@@H](CO)OCP(=O)(O)O)c(=O)n1,-,632 µM
CC(C)=CC[C@H]1C[C@]2(C[C@H]3CCC(C)(C)C=C3C)C(=O)C3=C(OC(C)(C)CC3)[C@@](C(=O)c3ccccc3)(C2=O)C1(C)C,sulforhodamine / absorbance,>50 µM
C[n+]1cccc2c(=O)n(-c3ccccn3)[se]c21,-,31.2 µg/mL
Cc1cc(NS(=O)(=O)c2ccc(N3C(=O)CSC3c3c(Cl)cccc3Cl)cc2)no1,MTT,>100 µg/mL
Nc1ccn([C@@H]2C[C@@H](O)[C@H](CO)O2)c(=O)n1,-,>100 µM
CC(C)=CC[C@H]1C[C@@]2(C[C@H]3CCC(C)(C)C=C3C)C(=O)[C@](C(=O)c3ccccc3)(C(=O)C3=C2OC(C)(C)CC3)C1(C)C,sulforhodamine / absorbance,>50 µM
O=C(O)C[C@H]1C(=O)O[C@H]2[C@H](OC(=O)c3cc(O)c(O)c(O)c3)[C@@H](OC(=O)c3cc(O)c(O)c4c3[C@H]1[C@H](O)C(=O)O4)[C@H](OC(=O)c1cc(O)c(O)c(O)c1)O[C@@H]2COC(=O)c1cc(O)c(O)c(O)c1,XTT,331 µM
COc1ccc(-c2noc(C3=CC4(CCN(Cc5nc(C)no5)CC4)c4ccccc43)n2)cc1,resazurin,37 µM
C#CNc1c2c(c(-c3ccc4c(c3)OCO4)c3cc(OC)c(OC)cc13)C(=O)OC2,absorbance,1.581 µM
CC1CCCN(c2ccc([N+](=O)[O-])s2)C1,resazurin,>20 µg/mL
NS(=O)(=O)c1ccc(NC(=O)CCC[Se][Se]CCCC(=O)Nc2ccc(S(N)(=O)=O)cc2)cc1,MTT,20 µg/mL
CCCCCCCCCCCCCCCCOP(=O)([O-])OCC[N+](C)(C)Cc1ccccc1,MTT,73.2 µM
O=c1[nH][se]c2ccccc12,-,3 µg/mL
CCCNC(=O)Oc1ccccc1[Se][Se]c1ccccc1OC(=O)NCCC,MTT,15 µg/mL
Fc1ccc(-c2nc(SCC3CC3)n[nH]2)cc1,MTT,>100 µg/mL
N=C(N)c1ccc(NC(=O)CCCC(=O)Nc2ccc(C(=N)N)cc2)cc1,-,>0.13 µg/mL

Repeating the final 9 entries:

compound,method,result
COc1ccc(-c2noc(C3=CC4(CCN(Cc5nc(C)no5)CC4)c4ccccc43)n2)cc1,resazurin,37 µM
C#CNc1c2c(c(-c3ccc4c(c3)OCO4)c3cc(OC)c(OC)cc13)C(=O)OC2,absorbance,1.581 µM
CC1CCCN(c2ccc([N+](=O)[O-])s2)C1,resazurin,>20 µg/mL
NS(=O)(=O)c1ccc(NC(=O)CCC[Se][Se]CCCC(=O)Nc2ccc(S(N)(=O)=O)cc2)cc1,MTT,20 µg/mL
CCCCCCCCCCCCCCCCOP(=O)([O-])OCC[N+](C)(C)Cc1ccccc1,MTT,73.2 µM
O=c1[nH][se]c2ccccc12,-,3 µg/mL
CCCNC(=O)Oc1ccccc1[Se][Se]c1ccccc1OC(=O)NCCC,MTT,15 µg/mL
Fc1ccc(-c2nc(SCC3CC3)n[nH]2)cc1,MTT,>100 µg/mL
N=C(N)c1ccc(NC(=O)CCCC(=O)Nc2ccc(C(=N)N)cc2)cc1,-,>0.13 µg/mL

CCn is the concentration with n% toxicity to the cells. An empty or dashed field is not shown.